A mixed list of measured activities; the numbers were collected in NIAID ChemDB.

Common to all: tests in culture; agent: Candida albicans; read-out: MIC80

Lines come from different laboratories, so protocols vary.

structure	strain or isolate	read by	result
Fc1ccccc1Cn1cc(Cn2ccnc2)c2cc(Br)ccc21	CA980001		>100 µg/mL
O=c1c2ccccc2oc2c(O)cccc12	ATCC 663.90		62 µg/mL
COc1ccc(/C=C/C(=O)OC2CCN(CC(O)(Cn3cncn3)c3ccc(F)cc3F)CC2)cc1OC	Y0109	broth dilution	0.03 µM
COc1ccc(N2C(=O)C=CC2=O)cc1	ATCC 10231	broth dilution	2 µg/mL
NC(=O)N/N=C/c1ccsc1.NC(=O)N/N=C/c1ccsc1.[Br][Ni][Br]	ATCC 66396	turbidity / absorbance	>250 µg/mL
Cc1ccc(-c2c3c(N)c4c(nc3nc3c2c(C)nn3-c2ccccc2)CCCC4)cc1	CCC 125	broth dilution / absorbance	31.2 µg/mL
O=C(/C=C/c1ccc([N+](=O)[O-])cc1)OC1CCN(CC(O)(Cn2cncn2)c2ccc(F)cc2F)CC1	Y0109	broth dilution	0.03 µM
CC(C)(C)c1ccccc1N1C(=O)C=CC1=O	ATCC 10231	broth dilution	4 µg/mL
O=C(/C=C/c1ccc(Cl)cc1Cl)OC1CCN(CC(O)(Cn2cncn2)c2ccc(F)cc2F)CC1	Y0109	broth dilution	0.117 µM
COc1c(O)ccc2oc3ccccc3c(=O)c12	ATCC 663.90		62 µg/mL
Cc1ccc(-c2c3c(N)c4c(nc3nc3c2c(C)nn3-c2ccccc2)CCCCC4)cc1	CCC 129	broth dilution / absorbance	62.5 µg/mL
OC(CN1CCCN(CCCCCOc2ccccc2)C1)(Cn1cncn1)c1ccc(F)cc1F			2.06 µM
Cc1ccccc1/C=C1\SC(=O)N(CC(O)(Cn2nccn2)c2ccc(F)cc2F)C1=O	CaCYP51		8.76 µg/mL
CC(C)(C)N1C(=O)C=CC1=O	ATCC 10231	broth dilution	2 µg/mL
C[C@@H](N1CCN(Cc2cn(Cc3ccc(F)cc3F)c3ccc(C#N)cc23)CC1)[C@](O)(Cn1cncn1)c1ccc(F)cc1F	ATCC 90028	resazurin	0.125 µg/mL
O=C1S/C(=C\c2ccc(F)cc2)C(=O)N1CC(O)(Cn1nccn1)c1ccc(F)cc1F	CaCYP51		1.09 µg/mL
C[C@@H](N1CCN(Cc2cn(-c3ccc(F)cc3)c3cc(Cl)ccc23)CC1)[C@](O)(Cn1cncn1)c1ccc(F)cc1F	ATCC 64548	resazurin	0.125 µg/mL
OC(CN=C1CCN(CCCCCOc2ccccc2)CC1)(Cn1cncn1)c1ccc(F)cc1F			>129 µM
CCCCCCCCC(=O)OC1CCN(CC(O)(Cn2cncn2)c2ccc(F)cc2F)CC1	Y0109	broth dilution	0.034 µM
COc1ccc2c(c1)CCN1C(NCCCCCC=C(C)C)NCCC21	NFI2103		32 µg/mL
C[C@@H](N1CCN(Cc2cn(Cc3ccc(F)cc3F)c3c(C#N)cccc23)CC1)[C@](O)(Cn1cncn1)c1ccc(F)cc1F	ATCC MYA-1003	resazurin	128 µg/mL
O=C(/C=C/c1cccc([N+](=O)[O-])c1)OC1CCN(CC(O)(Cn2cncn2)c2ccc(F)cc2F)CC1	Y0109	broth dilution	0.122 µM
CCC(C)/C=C1\SC(=O)N(CC(O)(Cn2nccn2)c2ccc(F)cc2F)C1=O	CaCYP51		0.31 µg/mL
CC(O)Cc1ccc(Cn2cc(CN3CCN([C@H](C)[C@](O)(Cn4cncn4)c4ccc(F)cc4F)CC3)c3cccc(F)c32)cc1	ATCC 36082	resazurin	2 µg/mL
C=C(CCCCCNC1NCCC2c3ccc(OC)cc3CCN12)C(C)C	NFI0124		16 µg/mL
Cc1cccc(C)c1N1C(=O)C=CC1=O	ATCC 10231	broth dilution	2 µg/mL
CN=[N+]([O-])CC[C@H](N)C(=O)O	ATCC 10231		4.2 µg/mL
O=C1S/C(=C\c2cccs2)C(=O)N1CC(O)(Cn1nccn1)c1ccc(F)cc1F	CaCYP51		1.11 µg/mL
Oc1ccc2cc1Oc1ccc(cc1)CCc1ccc(c(O)c1)-c1c(O)cccc1CC2	SC5314	broth dilution	16 µg/mL
COc1ccc2c(c1)CCN1C(NCCCCCCC(C)C)NCCC21	NFI0124		4 µg/mL
COc1cc(/C=C/c2ccc(O)cc2)cc(OC)c1	SC5314	broth dilution	32 µg/mL
NC(=O)N/N=C/c1ccsc1	ATCC 66396	turbidity / absorbance	>250 µg/mL
Cn1cccc1/C=C1\SC(=O)N(CC(O)(Cn2nccn2)c2ccc(F)cc2F)C1=O	CaCYP51		0.56 µg/mL
O=C(/C=C/c1cccc(F)c1)OC1CCN(CC(O)(Cn2cncn2)c2ccc(F)cc2F)CC1	Y0109	broth dilution	0.005 µM
CN(CCCOc1ccccc1)CC(O)(Cn1cncn1)c1ccc(F)cc1F			0.01 µM
Cc1c(C(C)n2ccnc2)c2ccccc2n1Cc1ccc(Br)cc1	CA980001		>100 µg/mL
CC(C)(C)c1ccc(/C=C2\SC(=O)N(CC(O)(Cn3nccn3)c3ccc(F)cc3F)C2=O)cc1	CaCYP51		0.13 µg/mL
Fc1ccc(Cn2cc(Cn3ccnc3)c3cc(Br)ccc32)cc1	CA980001		>100 µg/mL
Cc1cc(C)c(N2C(=O)C=CC2=O)c(C)c1	ATCC 10231	broth dilution	2 µg/mL
O=c1c2cccc(O)c2oc2cccc(O)c12	ATCC 663.90		62 µg/mL
Cc1ccc(-c2c3c(N)c4c(nc3nc3c2c(C)nn3-c2ccccc2)CCC4)cc1	CCC 125	broth dilution / absorbance	62.5 µg/mL
Clc1ccc(Cn2cc(Cn3ccnc3)c3cc(Br)ccc32)cc1	CA980001		>100 µg/mL
CCCCCCCCNC1NCCC2c3ccc(OC)cc3CCN12	NFI0124		16 µg/mL
C[C@@H](N1CCN(Cc2cn(Cc3ccc(Cl)cc3)c3c(F)cccc23)CC1)[C@](O)(Cn1cncn1)c1ccc(F)cc1F	ATCC 64548	resazurin	0.125 µg/mL
O=C1C=CC(=O)N1C1CCCCC1	ATCC 10231	broth dilution	1 µg/mL
C[C@@H](c1ncncc1F)[C@](O)(Cn1cncn1)c1ccc(F)cc1F	572-27		0.03 µg/mL
OC(CN1CCN(c2ccc(OCc3ccncc3)cc2)CC1)(Cn1cncn1)c1ccc(F)cc1F	304356		2 µg/mL
CC(O)Cc1ccc(Cn2cc(CN3CCN([C@H](C)[C@](O)(Cn4cncn4)c4ccc(F)cc4F)CC3)c3ccccc32)cc1	ATCC MYA-1003	resazurin	>128 µg/mL
CN1CCN(c2n[nH]c(N3C(=O)CS[C@@H]3c3ccc4c(c3)OCO4)n2)CC1	149.97	broth dilution	0.78 µg/mL
C[C@H]1[C@H](O)[C@@H](C)/C=C/C=C/C=C/C=C/C=C/C=C/C=C/[C@H](O[C@@H]2O[C@H](C)[C@@H](O)[C@H](N)[C@@H]2O)C[C@@H]2O[C@](O)(C[C@@H](O)C[C@@H](O)CC[C@H](O)[C@@H](O)C[C@@H](O)CC(=O)O[C@H]1C)C[C@H](O)[C@H]2C(=O)O	TIMM3164 (azole-resistant)		0.13 µg/mL
C[C@@H](N1CCN(Cc2cn(Cc3cccc(C(F)(F)F)c3)c3ccccc23)CC1)[C@](O)(Cn1cncn1)c1ccc(F)cc1F	ATCC 64548	resazurin	0.125 µg/mL

Blank or dashed fields: not listed here. MIC50, MIC90 and the like: level of inhibition, or share of isolates inhibited.